Compound potency records, mixed from different reports. Data source: NIAID ChemDB in PubChem.

All rows: growth or infection tests; organism: Mycobacterium tuberculosis

ECn: concentration that inhibits the pathogen or its effect by n%. Percent inhibition refers to the dose given; in toxicity tests it is the harm to the cells. Neighbouring rows are from separate reports. MIC bound: limit read from a one-dose screen. For "inactive" no cut-off is given. An empty or dashed field is not shown. MIC50, MIC90 and the like: level of inhibition, or share of isolates inhibited.

compound	strain	tested at	changes	endpoint	method	result
COc1ccccc1CCNCCNCC12CC3CC(CC(C3)C1)C2				MIC		50 µM
CCCCCCCN1C(=O)c2cc(Cl)nnc2Oc2ccc(C)cc21	H37Rv	12.5 µg/mL		inhibition	BACTEC	43%
O=C(Nc1cccc2ccc(C3CCCCC3)nc12)C(F)(F)F	H37Rv			MIC		>6.25 µg/mL
COc1cc2c(cc1OC)[C@@]13CCN4C=C5CCO[C@H]6CC(=O)N2[C@H]1[C@H]6[C@H]5C[C@H]43	H37Rv			MIC bound	BACTEC	>12.8 µg/mL
CCCCCCCCCN1C(=O)c2ccnnc2Oc2cc(C)ccc21	H37Rv			EC50	BACTEC	>12.5 µg/mL
CN(C)CCCN1c2ccccc2Sc2ccc(Cl)cc21	ATCC 27294			MIC		10 µg/mL
c1ccc(C(CNCCNCC23CC4CC(CC(C4)C2)C3)c2ccccc2)cc1				MIC		9.4 µM
COC(=O)c1cccc2oc3ccc([N+](=O)[O-])cc3c(=O)c12	H37Rv	4 µg/mL		inhibition		inactive
O=[N+]([O-])c1cccc2c(C3CCCC3)cc(C3CCCC3)nc12	H37Rv			MIC		6.25 µg/mL
Cc1cc2oc3ccccc3c(=O)c2cc1[N+](=O)[O-]	H37Rv	8 µg/mL		inhibition		inactive
CN(C)CCN(/N=C/c1ccc([N+](=O)[O-])o1)C(N)=O	H37Rv			MIC bound	BACTEC	>12.5 µg/mL
Cc1ccc2c(=O)c3ccccc3oc2c1C	H37Rv	4 µg/mL		inhibition		inactive
C1CCC2C(C1)CCCN2CCNCC12CC3CC(CC(C3)C1)C2				MIC		18.8 µM
CCOc1ccc2c(c1)n([O-])c1cc(Cl)ccc1[n+]2=O	RMP-R			MIC		3.1 µg/mL
CC(=O)c1cc(N)c2nc(C34CC5CC(CC(C5)C3)C4)ccc2c1	H37Rv	6.25 µg/mL		inhibition		0%
NC(=O)c1ccc(NC(=O)CCC(=O)Nc2ccc(C(N)=O)cn2)nc1	H37Rv	6.25 µg/mL		inhibition	resazurin	1%
Cc1ccc(-c2cs/c(=N\NC(=O)COc3cnccn3)n2-c2ccc(Cl)cc2[N+](=O)[O-])cc1	H37Rv			MIC		12 µg/mL
C[n+]1c([O-])c(C(=O)CCl)n2ccccc21	H37Rv	6.25 µg/mL		inhibition	resazurin	-7%
CO[C@H]1/C=C/O[C@@]2(C)Oc3c(C)c(O)c4c(O)c(c5c(c4c3C2=O)NC2(CCN(CC(C)C)CC2)N=5)=NC(=O)/C(C)=C\C=C\[C@H](C)[C@H](O)[C@@H](C)[C@@H](O)[C@@H](C)[C@H](OC(C)=O)[C@@H]1C	H37Rv			MIC		0.015 µg/mL
C[C@@H]1[C@H]2C[C@@H](C[C@H]1NCCN[C@@H](C)C1CCCCC1)C2(C)C				MIC		25 µM
CN[C@@H]1[C@@H](O)[C@@H](O[C@@H]2[C@@H](O)[C@H](O[C@H]3O[C@H](CN)CC[C@H]3N)[C@@H](N)C[C@H]2N)OC[C@]1(C)O	H37Rv	4 µg/mL		inhibition		inactive
COc1ccc(CNCCNCCC2=CCCCC2)c(OC)c1				MIC		50 µM
O=C(c1cccc(Cl)c1)N1CCN(c2ccc(-c3ccccn3)cc2)CC1	Wild type without biotin			MIC50	turbidity	>50 µM
O=C(COc1cnccn1)N/N=c1\scc(-c2ccc(Cl)cc2Cl)n1-c1ccc(Cl)cc1[N+](=O)[O-]	H37Rv			MIC		3.6 µg/mL
C[C@H]1COc2c(N3CCN(C)CC3)c(F)cc3c(=O)c(C(=O)O)cn1c23	H37Rv			MIC	resazurin	0.25 µg/mL
CC1(C)CC2CC(C)(CN2CCNC[C@@H]2CC[C@H]3C[C@@H]2C3(C)C)C1				MIC		6.25 µM
Cc1ccc(-c2cs/c(=N\NC(=O)COc3cnccn3)n2C(C)C)cc1	H37Rv			MIC		13 µg/mL
Cc1cc(NC(=O)NC(=O)c2ccccc2NC(=O)CN(C)C)ccc1Oc1ncc(Br)cn1.Cl	H37Rv	12.5 µg/mL		inhibition	BACTEC	23%
CC1(C)S[C@@H]2[C@H](NC(=O)[C@H](N)c3ccccc3)C(=O)N2[C@H]1C(=O)O	IRZ			MIC		>92 µM
CCCCCC(/C=C/C1C(O[Si](C)(C)C(C)(C)C)CC(N(C)C)C1(C/C=C/CCCC#N)S(=O)(=O)c1ccccc1)O[Si](C)(C)C(C)(C)C	H37Rv	12.5 µg/mL		inhibition	BACTEC	7%
NC(=O)c1ccc2c(=O)c3ccccc3oc2c1	H37Rv	4 µg/mL		inhibition		inactive
CC(=O)Nc1cccc2ccc(C3CCCCC3)nc12	H37Rv			MIC		>6.25 µg/mL
CC(=O)c1ccc(N2CCN(C(=O)c3cscn3)CC2)cc1	Wild type without biotin			MIC50	turbidity	>50 µM
C[C@]1(COc2ccc(N3CCC(Oc4ccc(OC(F)(F)F)cc4)CC3)cc2)Cn2cc([N+](=O)[O-])nc2O1	UT18			MIC		0.024 µg/mL
Nc1c(C(=O)Nc2ccccc2)[n+]([O-])c2ccccc2[n+]1[O-]	EMB-R			MIC		6.3 µg/mL
O=C(NCc1ccc(N2CCN(Cc3ccccc3)CC2)nc1)c1ccc([N+](=O)[O-])o1	CDC1551			MIC		0.05 µg/mL
N#Cc1ccc2c(=O)c3ccccc3oc2c1	H37Rv	2 µg/mL		inhibition		inactive
CC1COc2c(N3CCN(C)CC3)c(F)cc3c(=O)c(C(=O)O)cn1c23	07-9206			MIC	agar	0.5 µg/mL
O=C(CC(=O)c1cccc([N+](=O)[O-])c1)C(=O)Nc1nc([N+](=O)[O-])cs1	H37Rv			MIC bound	resazurin	>6.25 µg/mL
CCCCCCN1C(=O)c2ccnnc2Oc2cc(C)ccc21	H37Rv	12.5 µg/mL		inhibition	BACTEC	21%
Cc1c([N+](=O)[O-])cc2c(=O)c3ccccc3oc2c1C	H37Rv	8 µg/mL		inhibition		inactive
CC[C@H]1OC(=O)[C@H](C)[C@@H](O[C@H]2C[C@@](C)(OC)[C@@H](O)[C@H](C)O2)[C@H](C)[C@@H](O[C@@H]2O[C@H](C)C[C@H](N(C)C)[C@H]2O)[C@](C)(OC)C[C@@H](C)C(=O)[C@H](C)[C@@H](O)[C@]1(C)O	42494			MIC		>4 µg/mL
Cc1ccc(OP2(Oc3ccc(C)cc3)=NP(Oc3ccc(C)cc3)(Oc3ccc(C)cc3)=NP(Oc3ccc(C)cc3)(Oc3ccc(C)cc3)=N2)cc1	H37Rv			MIC	BACTEC	≥128 µg/mL
NC(=O)c1cnccn1	M6733			MIC		30 µg/mL
CO[C@H]1/C=C/O[C@@]2(C)Oc3c(C)c(O)c4c(O)c(c(/C=N/N5CCN(C)CC5)c(O)c4c3C2=O)NC(=O)/C(C)=C\C=C\[C@H](C)[C@H](O)[C@@H](C)[C@@H](O)[C@@H](C)[C@H](OC(C)=O)[C@@H]1C			513Pro	MIC99		>640 µg/mL
C/C(=N\NC(=S)N(C)C)c1ccccn1.[Cu][Br]	V2475			MIC90		6.25 µM
CCn1c(-c2cc3cc(Br)ccc3oc2=O)cs/c1=N\N=C\c1cc(Br)ccc1O	H37Rv			MIC		>12.5 µg/mL
CCN(Cc1ccc(CN(CC)C(=O)c2c(-c3ccccc3)noc2C)cc1)C(=O)c1c(-c2ccccc2)noc1C	H37Rv	6.25 µg/mL		inhibition	resazurin	17%
C[C@H]1COc2c(N3CCN(C)CC3)c(F)cc3c(=O)c(C(=O)O)cn1c23	9S			MIC		0.5 µg/mL
Cc1ccc2c(=O)c3ccccc3oc2c1	H37Rv	4 µg/mL		inhibition		inactive
O=C(c1ccc([N+](=O)[O-])o1)N1CCc2cc(N3CCN(Cc4ccccc4)CC3)ccc2C1	UT26			MIC		0.012 µg/mL
CC(C)n1c(-c2ccc(F)cc2)cs/c1=N\NC(=O)COc1cnccn1	H37Rv			MIC		8.5 µg/mL
NC(N)=N/N=C(\N=Nc1ccccc1)c1cccc2cccnc12	H37Rv			MIC bound	BACTEC	>12.5 µg/mL
CCOc1cc(/C=N/N=c2\scc(-c3cc4ccccc4oc3=O)n2CC)ccc1O	H37Rv			EC50		<12.5 µg/mL
O=C(O)c1cc2oc3ccc([N+](=O)[O-])cc3c(=O)c2cc1[N+](=O)[O-]	H37Rv	32 µg/mL		inhibition		inactive
CC(=O)c1ccc(N2CCN(C(=O)c3ccc4c(c3)OCCCO4)CC2)cc1	BioA overexpression strain			MIC50	turbidity	>50 µM
NNC(=O)c1ccncc1	H37Rv			MIC		0.1 µg/mL
CC(NC(=O)OCc1ccccc1)C(=O)NC1C(CO)OC(n2cnc3c(N)ncnc32)C1O	H37Rv			MIC bound	BACTEC	>12.5 µg/mL
CC(=O)c1ccc(N2CCC(C(=O)c3cccc(Cl)c3)CC2)cc1	BioA underexpression strain			MIC90	turbidity	>50 µM
O=C1N(c2nncs2)CCN1[N+](=O)[O-]	TAC-R			MIC		6.3 µg/mL
O=C(COc1cnccn1)N/N=C1\SCC(=O)N1c1ccc(Cl)cc1[N+](=O)[O-]	H37Rv			MIC		85 µg/mL
O=C(Nc1cccc2cccnc12)C(F)(F)F	H37Rv			MIC		>6.25 µg/mL
N/C(COc1cccc(Cl)c1)=N/NC(=O)c1ccncc1	ATCC 35828 (pyrazinamide-resistant)			MIC		3.12 µg/mL
CC(=O)C(N=NC1CCC(S(=O)(=O)NB2N=CS2)CC1)C(=O)Nc1ccccc1C	H37Rv	12.5 µg/mL		inhibition	BACTEC	11%
O=C(Nc1cccc2c(C3CCCCC3)cc(C3CCCCC3)nc12)C(F)(F)F	H37Rv			MIC		6.25 µg/mL
CN[C@@H]1[C@H](O[C@H]2[C@H](O[C@H]3[C@H](O)[C@@H](O)[C@H](N=C(N)N)[C@@H](O)[C@@H]3N=C(N)N)O[C@@H](C)[C@]2(O)C=O)O[C@@H](CO)[C@H](O)[C@H]1O	42494			MIC		<2 µg/mL
Cc1ccccc1OC/C(N)=N\NC(=O)c1ccncc1	16 isolates			MIC50		25 µg/mL
CCCCCCCOc1c(C(C)=O)cc(N)c2nccc(CC)c12	H37Rv			MIC		>6.25 µg/mL
O=c1oc2ccccc2cc1-c1cs/c(=N\N=C\c2cc(Br)ccc2O)n1-c1ccccc1	H37Rv			EC50		>12.5 µg/mL
O=c1c2ccccc2nc(-c2ccccc2)n1-c1nnc(C(F)(F)F)s1	H37Rv			MIC bound	BACTEC	≤12.5 µg/mL
O=[N+]([O-])c1cccc2cccnc12	H37Rv			MIC		>6.25 µg/mL
Cc1ccc(S(=O)(=O)NNC(=O)c2cc3ccccc3[nH]2)cc1	H37Rv			MIC bound	BACTEC	>6.25 µg/mL
Cc1ccc(OC/C(N)=N\NC(=O)c2ccncc2)cc1	16 isolates			MIC90		6.25 µg/mL
O=C(CCCC(=O)NNC(=S)Nc1ccccc1Cl)NNC(=S)Nc1ccccc1Cl	H37Rv			MIC	BACTEC	≥12.5 µg/mL
COC(=O)c1ccc(N2CCN(C(=O)c3cccc(Cl)c3)CC2)cc1	BioA overexpression strain			MIC50	turbidity	>50 µM
Cc1ccc2c(c1)Oc1nnc(Cl)cc1C(=O)N2CCCC1CCCCC1	H37Rv	12.5 µg/mL		inhibition	BACTEC	54%
CCCCC(CC)CN1CN(CC(CC)CCCC)CC(C)(NCCNCc2cccc(C)c2)C1				MIC		6.25 µM
O=[N+]([O-])c1cccc2ccc(C3CCCC3)nc12	H37Rv	6.25 µg/mL		inhibition		20%
CC1CN=C(N(C(=O)Nc2ccccc2)c2ccc(Cl)c(Cl)c2)S1	H37Rv			MIC bound	resazurin	>6.25 µg/mL
CCCCCCCCCCCNCCNC(C)CCc1ccccc1				MIC		25 µM
Cc1cccc(N=Nc2c(-c3ccccc3)nn(C(=S)S)c2C)c1C	H37Rv			MIC	BACTEC	32 µg/mL
C=CCn1c(-c2cc3cc(Br)ccc3oc2=O)cs/c1=N\N=C\c1ccc(Cl)cc1	H37Rv			MIC		>12.5 µg/mL

A second listing of 6 rows from above:

compound,strain,tested at,changes,endpoint,method,result
Cc1ccc(S(=O)(=O)NNC(=O)c2cc3ccccc3[nH]2)cc1,H37Rv,,,MIC bound,BACTEC,>6.25 µg/mL
Cc1cc2oc3ccccc3c(=O)c2cc1[N+](=O)[O-],H37Rv,8 µg/mL,,inhibition,,inactive
CO[C@H]1/C=C/O[C@@]2(C)Oc3c(C)c(O)c4c(O)c(c(/C=N/N5CCN(C)CC5)c(O)c4c3C2=O)NC(=O)/C(C)=C\C=C\[C@H](C)[C@H](O)[C@@H](C)[C@@H](O)[C@@H](C)[C@H](OC(C)=O)[C@@H]1C,,,513Pro,MIC99,,>640 µg/mL
CCCCCCCCCCCNCCNC(C)CCc1ccccc1,,,,MIC,,25 µM
Cc1ccc(OC/C(N)=N\NC(=O)c2ccncc2)cc1,16 isolates,,,MIC90,,6.25 µg/mL
COc1ccccc1CCNCCNCC12CC3CC(CC(C3)C1)C2,,,,MIC,,50 µM